A mixed list of measured activities; the numbers were collected in NIAID ChemDB.

Shared fields: growth or infection tests

MIC50, MIC90 and the like: level of inhibition, or share of isolates inhibited.

compound,organism,endpoint,tested at,setting,changes,cell line,strain or isolate,read by,result
CCc1nc2ccc(Cl)cn2c1C(=O)NCc1ccc(N2CCN(c3ccc(OCC4CC4)cc3)[C@@H](C)C2)cc1F.Cl,Mycobacterium avium,inhibition,0.024 µM,,,,,fluorescence,85%
CCC(CC)[C@H](NC(C)=O)[C@@H]1[C@H](O)[C@@H](C(=O)O)C[C@H]1N=C(N)N,Influenza A virus,EC50,,,,MDCK,Influenza A/Sydney/05/97 (H3N2),,0.19 µM
O=C(Nc1ccc2cc(S(=O)(=O)[O-])cc(S(=O)(=O)[O-])c2c1)c1ccccc1,Herpes simplex virus,inhibition,10 µg/mL,,,Human conjunctiva cells,,cytopathic effect,0%
CCCC(CCC)C(NC(C)=O)C1C(N=C(N)N)CC(C(=O)O)C1O,Influenza A virus,EC50,,,,MDCK,Influenza A/Shandong/09/93 (H3N2),,0.23 µM
CCc1nc(N)nc(N)c1-c1ccc(Cl)cc1,Mycobacterium avium complex,MIC,,,,,DW27,,32 µg/mL
CCc1nc2cc(F)ccn2c1C(=O)NCc1ccc(N2C[C@H](C)N(c3ccc(OC(F)(F)F)cc3)C[C@H]2C)c(F)c1.Cl,Mycobacterium avium,inhibition,0.016 µM,,,,,fluorescence,85%
O=C(Nc1ccc2c(O)c(N=Nc3ccc(N=Nc4ccc(S(=O)(=O)O)cc4)cc3)c(S(=O)(=O)O)cc2c1)c1ccccc1,Adenovirus,inhibition,5 µg/mL,,,Human amnion AV3 cells,TYPE 3,cytopathic effect,0%
CCCCCCCCCCCCCCCCCCCCCCOCC(C)(COCCCCCCCCCCCCCCCCCCCCCC)CO[C@]1(C(=O)O)C[C@H](OS(=O)(=O)O)[C@@H](NC(C)=O)[C@H]([C@H](OS(=O)(=O)O)[C@@H](COS(=O)(=O)O)OS(=O)(=O)O)O1,Rotavirus,EC50,,,,MA-104,WA (serotype 1),,0.82 µg/mL
O=S(=O)(O)c1cc(O)c2c(O)c(N=Nc3ccccc3)c(S(=O)(=O)O)cc2c1,Adenovirus,inhibition,10 µg/mL,,,Human embryonic lung cells,TYPE 3,cytopathic effect,20%
Nc1nc2c(ncn2COC(CO)CO)c(=O)[nH]1,Human cytomegalovirus,EC50,,,,MRC-5,,virus yield,>25 µM
Nc1nc(N)c2ncn(CCOCP(=O)(O)O)c2n1,Varicella zoster virus,EC50,,,,HEL,Oka acyclovir-resistant,cytopathic effect,3 µM
Nc1nc2c(ncn2COC(CO)CO)c(=O)[nH]1,Human cytomegalovirus,EC50,,,,,Recombinant C4 (D341E),virus yield,<3.7 µM
CCc1ccc(S(=O)(=O)NC(=O)c2ccccc2O)cc1,Toxoplasma gondii,MIC90,,,,Human foreskin fibroblasts,,,>0.25 µM
O=c1[nH]c(=O)n([C@@H]2O[C@H](CO)[C@@H](O)[C@@H]2O)cc1/C=C/Br,Varicella zoster virus,EC50,,,,HEL,Oka CF1743-resistant,cytopathic effect,>57 µM
COCCn1ccc(=O)c(O)c1C,Pneumocystis carinii,EC50,,7 d,,Human fibroblasts,,,<72 µM
CCC(C)n1ncn(-c2ccc(N3CCN(c4ccc(OC[C@H]5CO[C@](Cn6cncn6)(c6ccc(Cl)cc6Cl)O5)cc4)CC3)cc2)c1=O,Aspergillus fumigatus,inhibition,4 µg/mL,,mpkC,,AF293,broth dilution,99.72%
Nc1nc(=O)n([C@@H]2O[C@H](CO)[C@@H](O)[C@@H]2F)cc1I,Cytomegalovirus,EC50,,,,HEL,DAVIS,cytopathic effect,7 µg/mL
CCc1c(O)c(=O)ccn1CC,Pneumocystis carinii,inhibition,18 µM,7 d,,Human fibroblasts,,,34%
N=C(N)c1ccc(OCCCCCOc2ccc(C(=N)N)cc2)cc1,Pneumocystis carinii,inhibition,50 µg/mL,,,,,,92%
CSc1nsc(-c2ccncc2)c1C#N,Adenovirus,EC50,,,,HEP-2,TYPE 2,plaque count,>2.5 µM
O=S(=O)(O)c1ccc2cc(O)c(S(=O)(=O)O)cc2c1,Herpes simplex virus,inhibition,50 µg/mL,,,Human amnion AV3 cells,,cytopathic effect,0%
CO[C@H]1/C=C/O[C@@]2(C)Oc3c(C)c(O)c4c(O)c(c5c(c4c3C2=O)NC2(CCN(CC(C)C)CC2)N=5)=NC(=O)/C(C)=C\C=C\[C@H](C)[C@H](O)[C@@H](C)[C@@H](O)[C@@H](C)[C@H](OC(C)=O)[C@@H]1C,Mycobacterium avium intracellulare,MIC,,,,,141,,0.5 µg/mL
Cc1ccc(C(=O)Nc2ccc(S(=O)(=O)O)c3cc(S(=O)(=O)O)cc(S(=O)(=O)O)c23)cc1NC(=O)c1cccc(NC(=O)Nc2cccc(C(=O)Nc3cc(C(=O)Nc4ccc(S(=O)(=O)O)c5cc(S(=O)(=O)O)cc(S(=O)(=O)O)c45)ccc3C)c2)c1,Herpes simplex virus,inhibition,10 µg/mL,,,Human amnion AV3 cells,,cytopathic effect,47%
Nc1nc2c(ncn2COC(CO)CO)c(=O)[nH]1,Cytomegalovirus,inhibition,0.3 µM,,,HFF,AD169,hybridisation,6%
Nc1nc2c(ncn2CCC(CO)CO)c(=O)[nH]1,Varicella zoster virus,EC50,,,,HEL,Oka PMEDAP-resistant,cytopathic effect,2 µM
Cc1cc(-c2ccc(N=Nc3c(S(=O)(=O)O)cc4cc(S(=O)(=O)O)cc(N)c4c3O)c(C)c2)ccc1N=Nc1c(S(=O)(=O)O)cc2cc(S(=O)(=O)O)cc(N)c2c1O,Adenovirus,inhibition,10 µg/mL,,,Human embryonic lung cells,TYPE 3,cytopathic effect,0%
O=c1[nH]c(=O)n([C@H]2C[C@H](O)[C@@H](CO)O2)cc1Br,Murine polyoma virus,inhibition,6.34 µg/mL,,,ME,,hybridisation,85%
CC(=O)N(O)CCCCCNC(=O)CCC(=O)N(O)CCCCCNC(=O)CCC(=O)N(O)CCCCCN,Pneumocystis carinii,inhibition,30 µM,7 d,,Human fibroblasts,,,81%
C=C/C(C)=C/[C@@]1(C)SC(=O)C(C)=C1O,Escherichia coli,MIC,,,,,UB1005/PSJ13,,25 µM
CCc1nc2ccc(Cl)cn2c1C(=O)NCc1ccc(N2CCN(c3ccc(OCC4CC4)cc3)[C@@H](C)C2)c(F)c1.Cl,Mycobacterium avium,inhibition,0.034 µM,,,,,fluorescence,85%
CC1(C)O[C@H]2[C@H](O)[C@@H](N=[N+]=[N-])C=C(c3ccc(C=O)cc3)[C@H]2O1,Candida tropicalis,inhibition,62.5 µg/mL,,,,C 131,broth dilution / turbidity,18.5%
C/C=C\[C@@H]1C[C@H](C(=O)O)N[C@H]1[C@@H](NC(C)=O)[C@](C)(CCC)OC,Influenza A virus,EC50,,,,MDCK,H1N1 PR/8/34,plaque count,0.0004 µM
N#Cc1csnc1-c1ccccc1,Adenovirus,EC50,,,,HEP-2,TYPE 2,plaque count,>100 µM
NC(=NCc1ccccc1)c1ccc(N2CCN(c3ccccc3)CC2)cc1,Pneumocystis carinii,inhibition,50 µg/mL,,,,,,93%
O=C(O)P(=O)(O)O,Varicella zoster virus,EC50,,,,HEL,Oka PMEDAP-resistant,cytopathic effect,141.2 µM
Nc1nc2c(ncn2COC(CO)CO)c(=O)[nH]1,Rhesus cytomegalovirus,EC50,,,,MRC-5,68-1,plaque count,8 µM
CCc1nc2cc(F)ccn2c1C(=O)NCc1ccc(-n2cc3c(n2)CN(c2ccc(OC(F)(F)F)cc2)C3)c(F)c1.Cl,Mycobacterium avium,inhibition,0.2 µM,,,,,fluorescence,85%
N=C(N)c1ccc(N2CCN(c3ccccc3)CC2)cc1,Pneumocystis carinii,inhibition,10 µg/mL,,,,,,80%
CSc1nsc(C)c1C#N,Coxsackie virus,EC50,,,,HEP-2,TYPE B1,plaque count,>100 µM
Nc1nc2c(ncn2COC(CO)CO)c(=O)[nH]1,Cytomegalovirus,EC50,,,,HEL,DAVIS,cytopathic effect,1 µg/mL
Nc1cc(S(=O)(=O)[O-])cc2cc(S(=O)(=O)[O-])ccc12,Adenovirus,inhibition,10 µg/mL,,,Human amnion AV3 cells,TYPE 3,cytopathic effect,0%
CCc1ccc(-c2noc(-c3ccccc3O)n2)cc1,Toxoplasma gondii,MIC50,,,,Human foreskin fibroblasts,,,>0.25 µM
CSc1nsc(-c2ccc(C)cc2)c1C#N,Measles virus,EC50,,,,HEP-2,Edmonston,plaque count,>18 µM
O=C(NC(=O)c1ccccc1O)c1ccc(NC(=O)c2ccccc2C(=O)O)cc1,Toxoplasma gondii,MIC50,,,,Human foreskin fibroblasts,,,>1 µM
CC(C)Nc1nc2cc(Cl)c(Cl)cc2n1[C@H]1O[C@@H](CO)[C@H](O)[C@@H]1O,Human cytomegalovirus,EC50,,,,MRC-5,9219REC7 (LEU595DEL),hybridisation,0.2 µM
CCc1ccc(C(=O)NS(=O)(=O)c2ccccc2OC)cc1,Toxoplasma gondii,MIC90,,,,Human foreskin fibroblasts,,,>0.25 µM
CC(=O)N[C@H]1[C@H]([C@H](O)[C@H](O)CO)OC(C(=O)O)=C[C@@H]1N=C(N)N,Influenza A virus,EC50,,,,MDCK,Influenza A/Washington/05/96 (H3N2),visual reading,0.03 µM
CCC[C@H](O)C[C@@H]1CC[C@H](C)CCCCC(=O)N(C)[C@@H](Cc2ccc(OCCO)cc2)C(=O)O1,Saccharomyces cerevisiae,MIC,,,,,ERG11,,12.5 µg/mL
NC(=NCCCc1ccccc1)c1ccc(N2CCN(c3ccccc3)CC2)cc1,Pneumocystis carinii,inhibition,0.1 µg/mL,,,,,,0%
CSc1nsc(C2CCCCC2)c1C#N,Encephalomyocarditis virus,EC50,,,,L929,Encephalomyocarditis virus,plaque count,>50 µM
CC(C)C1=C2[C@H]3CC[C@@H]4[C@@]5(C)CC[C@H](OC(=O)CC(C)(C)C(=O)O)C(C)(C)[C@@H]5CC[C@@]4(C)[C@]3(C)CC[C@@]2([C@@H](O)CN(CCN(C)C)Cc2ccc(Cl)cc2)CC1=O,SIV,EC50,,,,CEM-SS + MAGIC-5A,MAC239,syncytia / visual reading / single cycle,>0.1 µM
CCC(CC)[C@H](NC(C)=O)[C@@H]1C[C@@H](C(=O)O)C[C@H]1N=C(N)N,Influenza A virus,EC50,,,,MDCK,Influenza A/Washington/897/80 (H3N2),,<0.01 µM
Nc1ccn(C[C@@H](CO)OCP(=O)(O)O)c(=O)n1,Cytomegalovirus,EC50,,,,HEL,DAVIS,plaque count,0.1 µg/mL
CC1=C[C@@H](n2cnc3c(N)ncnc32)[C@H](O)[C@@H]1O,Sindbis virus,EC50,,,,VERO,,cytopathic effect,>200 µg/mL
Cn1cc(C(=O)NCc2ccc(Cl)cc2)c(=O)c2cc(CN3CCOCC3)ccc21,Varicella zoster virus,inhibition,2 µM,,,HFF,Human zoster isolate,plaque count,90%
CCOc1ccc(N2CCN(c3ccc(CNC(=O)c4c(CC)nc5ccc(Cl)cn45)cc3F)C[C@@H]2C)cc1F.Cl,Mycobacterium avium,inhibition,0.037 µM,,,,,fluorescence,85%
C=CC1=C[C@@H](n2cnc3c(N)ncnc32)[C@H](O)[C@@H]1O,Sindbis virus,EC50,,,,VERO,,cytopathic effect,>200 µg/mL
COc1cc(OC)c2c(=O)cc(-c3ccccc3)oc2c1CC=C(C)C,Dengue virus,inhibition,6 µM,,,LLC-MK2,Type 2/Mexican isolate,plaque count,10%
C[C@@H](c1ncncc1F)[C@](O)(Cn1cncn1)c1ccc(F)cc1F,Cryptococcus gattii,MIC50,,,,,VG IIc,broth dilution,0.25 µg/mL
Nc1nc2c(ncn2COCCO)c(=O)[nH]1,Cytomegalovirus,EC50,,,,HEL,AD169,cytopathic effect,70 µg/mL
O=S(=O)([O-])c1ccc2c(O)cc(S(=O)(=O)[O-])cc2c1,Herpes simplex virus,inhibition,10 µg/mL,,,Human conjunctiva cells,,cytopathic effect,0%
Nc1ncnc2c1ncn2[C@@H]1C=C(CF)[C@H](O)[C@H]1O,Sindbis virus,EC50,,,,VERO,,cytopathic effect,7 µg/mL
O=C(Nc1c(S(=O)(=O)[O-])cc2cc(S(=O)(=O)[O-])cc(O)c2c1O)c1ccccc1,Rhinovirus,inhibition,10 µg/mL,,,Human embryonic lung cells,,cytopathic effect,30%
C=CCc1ccc(OC)c(OC)c1,Candida tropicalis,MIC90,,,,,3178,turbidity,345 µg/mL

For reference, 10 entries again:

compound,organism,endpoint,tested at,setting,changes,cell line,strain or isolate,read by,result
N=C(N)c1ccc(OCCCCCOc2ccc(C(=N)N)cc2)cc1,Pneumocystis carinii,inhibition,50 µg/mL,,,,,,92%
O=C(NC(=O)c1ccccc1O)c1ccc(NC(=O)c2ccccc2C(=O)O)cc1,Toxoplasma gondii,MIC50,,,,Human foreskin fibroblasts,,,>1 µM
CSc1nsc(C2CCCCC2)c1C#N,Encephalomyocarditis virus,EC50,,,,L929,Encephalomyocarditis virus,plaque count,>50 µM
CCc1ccc(S(=O)(=O)NC(=O)c2ccccc2O)cc1,Toxoplasma gondii,MIC90,,,,Human foreskin fibroblasts,,,>0.25 µM
O=c1[nH]c(=O)n([C@H]2C[C@H](O)[C@@H](CO)O2)cc1Br,Murine polyoma virus,inhibition,6.34 µg/mL,,,ME,,hybridisation,85%
CCc1nc2cc(F)ccn2c1C(=O)NCc1ccc(-n2cc3c(n2)CN(c2ccc(OC(F)(F)F)cc2)C3)c(F)c1.Cl,Mycobacterium avium,inhibition,0.2 µM,,,,,fluorescence,85%
O=C(O)P(=O)(O)O,Varicella zoster virus,EC50,,,,HEL,Oka PMEDAP-resistant,cytopathic effect,141.2 µM
CC(C)Nc1nc2cc(Cl)c(Cl)cc2n1[C@H]1O[C@@H](CO)[C@H](O)[C@@H]1O,Human cytomegalovirus,EC50,,,,MRC-5,9219REC7 (LEU595DEL),hybridisation,0.2 µM
C=C/C(C)=C/[C@@]1(C)SC(=O)C(C)=C1O,Escherichia coli,MIC,,,,,UB1005/PSJ13,,25 µM
Nc1nc2c(ncn2COC(CO)CO)c(=O)[nH]1,Cytomegalovirus,inhibition,0.3 µM,,,HFF,AD169,hybridisation,6%

ECn is the concentration giving n% inhibition of infection, replication or growth. Inhibition is in % at the dose shown (toxicity tests: loss of growth or viability). Blank or dashed fields: not listed here. Rows are shuffled and stem from different studies.